Key:
[1] = Metal corrosion inhibition in brake fluid A, aluminum; conditions: 100°±2° C., 120±2 hours, blank +0.07
[2] = Metal corrosion inhibition in brake fluid A, steel; conditions: 100°±2° C., 120±2 hours, blank -0.20
[3] = Metal corrosion inhibition in brake fluid A, copper; conditions: 100°±2° C., 120±2 hours, blank +0.18
[4] = Metal corrosion inhibition in brake fluid A, cast iron; conditions: 100°±2° C., 120±2 hours, blank -0.14
[5] = Metal corrosion inhibition in brake fluid A, tin-plate; conditions: 100°±2° C., 120±2 hours, blank -0.15
[6] = Metal corrosion inhibition in brake fluid A, brass; conditions: 100°±2° C., 120±2 hours, blank -0.20
[7] = Table 4, azaalkenelactams […] by weight in brake fluid A
[8] = Table 5, carboxylate derivatives […] by weight in brake fluid A

Molecule | Weight change, aluminum [1, 7] | Weight change, steel [2, 7] [mg/cm^2] | Weight change, copper [3, 7] | Weight change, cast iron [4, 7] [mg/cm^2] | Weight change, tin-plate [5, 7] [mg/cm^2] | Weight change, brass [6, 7] [mg/cm^2] | Weight change, aluminum [1, 8] | Weight change, steel [2, 8] [mg/cm^2] | Weight change, copper [3, 8] [mg/cm^2] | Weight change, cast iron [4, 8] [mg/cm^2] | Weight change, tin-plate [5, 8] [mg/cm^2] | Weight change, brass [6, 8] [mg/cm^2]
CCCCCCCCCCC(O)CN1CCCN=CC(C)C1=O (centres unmarked) [Example 45, 1-(2-hydroxy)dodecyl-3-methyl-3,6,7,8-tetrahydro-1,5-diazocin-2-one] | +0.01 mg/cm^2 | -0.02 | +0.03 mg/cm^2 | -0.02 | -0.02 | -0.02 |  |  |  |  |  | 
4-methylbenzylpoly(2 moles)oxypropyleneoxypropyl-6-methyl-2,3,6,7-tetrahydro-1,4-diazocin-5-one [Example 67] | +0.01 mg/cm^2 | -0.01 | +0.02 mg/cm^2 | -0.02 | -0.01 | -0.02 |  |  |  |  |  | 
CC1=NCCN(CCNC(=O)CCCCCCCCCCCCCCC(C)C)C(=O)C1 [Example 11, 4-isostearamidoethyl-7-methyl-3,6-dihydro-2H-1,4-diazepin-5-one] | +0.01 mg/cm^2 | -0.01 | +0.02 mg/cm^2 | -0.02 | 0 | -0.03 |  |  |  |  |  | 
CCCCCCCCc1ccc(OCCOC(C)COC(C)CN2CC[N+](CC(=O)[O-])=C(C)CC2=O)cc1 (centres unmarked) |  |  |  |  |  |  | 0 mg/cm^2 | -0.01 | 0 | -0.01 | -0.02 | 0
CCCCCCCCc1ccc(OCCOC(C)COC(C)CN2CCN=C(C)CC2=O)cc1 (centres unmarked) [Example 19] | +0.01 mg/cm^2 | -0.02 | +0.01 mg/cm^2 | -0.02 | -0.02 | 0 |  |  |  |  |  | 
CCCCCCCCCCCCCCNCCN1CCC[N+](C(C)C(=O)[O-])=CC(C)C1=O (centres unmarked) [1-tetradecylaminoethyl-3-methyl-1-aza-5-azoniacyclooct-4-en-2-one-5-propionate] |  |  |  |  |  |  | 0 mg/cm^2 | -0.02 | -0.01 | -0.02 | -0.01 | -0.01
CCCCCCCCCCCCC(O)CN1CCC[N+](CC(=O)[O-])=C(C)CC1=O (centres unmarked) [1-(2-hydroxy)tetradecyl-4-methyl-1-aza-5-azoniacyclooct-4-en-2-one-5-acetate] |  |  |  |  |  |  | +0.02 mg/cm^2 | -0.03 | -0.02 | -0.02 | -0.02 | -0.02
CCCCCCCC/C=C\CCCCCCCC(=O)NCCN1CC[N+](CC(=O)[O-])=C(C)CC1=O [4-oleamidoethyl-7-methyl-1-azonia-4-azacyclohept-7-en-5-one-1-acetate] |  |  |  |  |  |  | 0 mg/cm^2 | -0.01 | 0 | -0.01 | -0.01 | 0
CCCCCCCCCCCCCCC(O)CNCCN1CC[N+](CC(=O)[O-])=CCCC1=O (centres unmarked) [4-(2-hydroxyhexadecyl)aminoethyl-4-aza-1-azoniacyclooct-8-en-5-one-1-acetate] |  |  |  |  |  |  | +0.02 mg/cm^2 | -0.02 | -0.02 | -0.02 | -0.02 | -0.02
CCCCCCCCCCCCCCCCN1CCN=C(C)CC1=O [Example 5, 4-hexadecyl-7-methyl-3,6-dihydro-2H-1,4-diazepin-5-one] | 0 mg/cm^2 | -0.01 | +0.02 mg/cm^2 | 0 | -0.01 | -0.02 |  |  |  |  |  | 
CCCCCCCCCCC(O)CN1CC[N+](CC(=O)[O-])=CC(C)C1=O (centres unmarked) [4-(2-hydroxy)dodecyl-6-methyl-1-azonia-4-azacyclohept-7-en-5-one-1-acetate] |  |  |  |  |  |  | +0.02 mg/cm^2 | -0.02 | -0.02 | -0.03 | -0.03 | -0.01
CCCCCCCCC=CCCCCCCCCN1CCCN=C(C)CC1=O [Example 4, 1-(9-octadecenyl)-4-methyl-3,6,7,8-tetrahydro-1,5-diazocin-2-one] | 0 mg/cm^2 | 0 | +0.02 mg/cm^2 | -0.01 | -0.01 | -0.01 |  |  |  |  |  | 
CCCCCCCCCCCCNCCCN1CCC[N+](CC(=O)[O-])=C(C)CC1=O [1-dodecylaminopropyl-4-methyl-1-aza-5-azoniacyclooct-4-en-2-one-5-acetate] |  |  |  |  |  |  | +0.02 mg/cm^2 | -0.03 | -0.01 | -0.02 |  | -0.02
CCCCCCCC(=O)NCCN1CCN=C(C)CC1=O [Example 23, 4-octamidoethyl-7-methyl-3,6-dihydro-2H-1,4-diazepin-5-one] | 0 mg/cm^2 | -0.01 | +0.03 mg/cm^2 | -0.01 | 0 | -0.03 |  |  |  |  |  | 
CCCCCCCCCCCCOCCNCCN1CC[N+](CC(=O)[O-])=C(C)CC1=O [4-dodecoxyaminoethyl-7-methyl-1-azonia-4-azacyclohept-7-en-5-one-1-acetate] |  |  |  |  |  |  | 0 mg/cm^2 | -0.01 | -0.01 | 0 | -0.02 | -0.01
CCCCCCCCCCCCN1CC[N+](CC(=O)[O-])=CC(C)C1=O (centres unmarked) [4-dodecyl-6-methyl-1-azonia-4-azacyclohept-7-en-5-one-1-acetate] |  |  |  |  |  |  | +0.01 mg/cm^2 | -0.03 | 0 | -0.02 | -0.02 | 0
CCCCCCCCCCCCOCC(O)CN1CCCN=C(C)CC1=O (centres unmarked) [Example 33, 1-docoxy(2-hydroxy)propyl-4-methyl-3,6,7,8-tetrahydro-1,5-diazocin-2-one] | +0.01 mg/cm^2 | 0 | +0.02 mg/cm^2 | -0.01 | -0.01 | -0.02 |  |  |  |  |  | 
CCCCCCCCCCCCN1CCN=C(C)CC1=O [Example 1, 4-dodecyl-7-methyl-3,6-dihydro-2H-1,4-diazepin-5-one] | +0.02 mg/cm^2 | -0.01 | +0.02 mg/cm^2 | -0.02 | 0 | 0 |  |  |  |  |  | 

— patent US4346087A, “Antibacterial surface active agent containing azaalkenelactam” (priority 1979, dated 1982)
